Paper PMC2492869 (BMC Microbiology, 2008)

Tested on: NC(N)=O
Assay: purified protein
Conditions: pH 8.0

## Brucella suis urease (ure-1 operon) (Brucella suis 1330)
  Km: 5.60 ± 0.69 mM
